The source of these data is PubChem BioAssay AID651602 (The Scripps Research Institute Molecular Screening Center, 2012).

Only a part is listed here, and it is no random draw. Activity calls are given as the source filed them. Cut-off read from the data, not from the text of the source: active = inhibition above about 11%; inactive = the rest.

The nature of the test: reduced absorbance of E. coli cultures with phage – HTS, RecBCD inhibitor project, primary screen (AID 651602). The conditions noted are these: growth absorbance, at 11.9 µM, hits give high values.
Consider `Cc1ccccc1NC1(C#N)CCN(Cc2ccccc2)CC1`, for which the inhibition is inactive: 1.95%. As for `COc1ccc(C(c2nnnn2C2CCCCC2)N2CCC(n3c(=O)[nH]c4ccccc43)CC2)cc1` (configuration not stated), the inhibition is inactive: 0.39%. Under `CCN1CCC(Nc2cccc(F)c2)CC1` stands inactive: -1.4%; under `CC(C)(C)n1nnnc1C(c1ccnc2ccccc12)N1CCC(n2c(=O)[nH]c3ccccc32)CC1` (configuration not stated), inactive: 1.87%; under `O=C(NCC1(N2CCCCC2)CCCCC1)c1ccco1`, inactive: -0.62%. Turning to `CN(C)c1ccc(C(=O)NCC2(N3CCCCC3)CCCCC2)cc1`, the inhibition was inactive: 1.38%.

On to `Cn1c(=O)[nH]cc(N(CCCl)CCCl)c1=O`, for which the inhibition was inactive: 4.34%. Turning to `COc1cccc(C(c2nnnn2C2CCCCC2)N2CCC(n3c(=O)[nH]c4ccccc43)CC2)c1OC` (configuration not stated), the inhibition is inactive: 2.15%.

Regarding `CC(=O)N(c1ccccc1)C1CCNCC1`, the inhibition was inactive: 3.19%.

For `CCC(c1nnnn1C1CCCCC1)N1CCC(n2c(=O)[nH]c3ccccc32)CC1` (configuration not stated), the inhibition was inactive: -0.39%.

In the case of `COc1cc(OC)cc(C(=O)NCC2(N3CCCCC3)CCCCC2)c1`, the inhibition was inactive: 3.94%. As to `O=c1[nH]c2ccccc2n1C1CCN(C(c2ccnc3ccccc23)c2nnnn2C2CCCCC2)CC1` (configuration not stated), the inhibition was inactive: 0.31%. Under `Cc1ccc(C(=O)NCC2(N3CCCCC3)CCCCC2)o1` stands inactive: 3.34%.

Take `Fc1ccccc1NC1CCN(Cc2ccccc2)CC1`: the inhibition is inactive: 0.99%.

As for `Cc1ccc(NC2(C#N)CCN(Cc3ccccc3)CC2)cc1`, the inhibition is inactive: 2.33%. For `COc1cccc(C(=O)N(c2cc(C)cc(C)c2)C2CCN(C(=O)OC(C)(C)C)CC2)c1`, the inhibition was inactive: 0.64%. The same measure for `COc1cc(OC)cc(C(=O)NCC2(N3CCOCC3)CCCCC2)c1`: inactive: 2.62%; for `COc1cccc(C(c2nnnn2C2CCCC2)N2CCC(n3c(=O)[nH]c4ccccc43)CC2)c1OC` (configuration not stated): inactive: 1.03%; for `CCC(CO)(C(=O)OC1CN2CCC1CC2)c1ccccc1` (configuration not stated): inactive: 2.24%.

On to `CN1CCC(Nc2ccc(Cl)cc2)CC1`, for which the inhibition was inactive: 1.48%. Under `CCOc1ncccc1C(=O)NCC1(N2CCOCC2)CCCCC1` stands inactive: -0.78%; under `CN1CCC(Nc2ccc(F)c(Cl)c2)CC1`, inactive: -1.48%. The same measure for `CC(C)(C)OC(=O)N1CCC(Nc2ccccc2)CC1`: inactive: 2.85%; for `NN(c1ccccc1)C1CCN(CCc2ccccc2)CC1`: inactive: 5.03%; for `O=C(O)C1(Nc2ccccc2)CCN(Cc2ccccc2)CC1`: inactive: 1.74%.

As for `O=c1[nH]c2ccccc2n1C1CCN(C(c2cc3ccccc3o2)c2nnnn2C2CCCC2)CC1` (configuration not stated), the inhibition is inactive: 0.78%. On to `CCCOc1ccc(C(=O)NCC2(N(C)C)CCCCC2)cc1`, for which the inhibition is inactive: 1.51%.

The term inhibition denotes the drop in the measured response relative to a control, in per cent.
